A mixed list of measured activities; the numbers were collected in NIAID ChemDB.

Shared fields: tests in culture; species: Mycobacterium kansasii; read-out: MIC

Two numbers with a dash give a range or band.

{"smiles": "O=C(Nc1cccc(C(F)(F)F)c1)c1ccc(Cl)cc1OS(=O)(=O)c1ccccc1", "strain or isolate": "6509/96", "conditions": "7 d", "result": "125 µM"}
{"smiles": "C[C@@H](NC(=O)OCc1ccccc1)c1cnc(-c2ccc([N+](=O)[O-])cc2)[nH]1", "strain or isolate": "My 235/80", "conditions": "21 d", "result": ">125 µM"}
{"smiles": "COc1ccc2oc(=O)n(-c3ccc(C)cc3)c(=S)c2c1", "strain or isolate": "My 235/80", "conditions": "14 d", "result": "16 µM"}
{"smiles": "O=C(Nc1cccc(C(F)(F)F)c1)c1cc(Cl)ccc1OS(=O)(=O)c1ccccc1", "strain or isolate": "6509/96", "conditions": "7 d", "result": "8 µM"}
{"smiles": "O=C(N[C@@H](Cc1ccccc1)c1cnc(-c2ccccc2)[nH]1)OCc1ccccc1", "strain or isolate": "My 235/80", "conditions": "7 d", "result": ">250 µM"}
{"smiles": "O=C(Nc1cccc(Br)c1)c1cc(Cl)ccc1OS(=O)(=O)c1ccccc1", "strain or isolate": "6509/96", "conditions": "14 d", "result": "8 µM"}
{"smiles": "COc1ccc2oc(=O)n(-c3ccc(Cl)c(Cl)c3)c(=S)c2c1", "strain or isolate": "My 235/80", "conditions": "21 d", "result": "62.5 µM"}
{"smiles": "CC[C@@H](C)[C@H](NC(=O)OCc1ccccc1)c1cnc(-c2ccccc2)[nH]1", "strain or isolate": "My 235/80", "conditions": "21 d", "result": "62.5 µM"}
{"smiles": "O=C(Nc1ccc(F)cc1)c1cc(Cl)ccc1OS(=O)(=O)c1ccccc1", "strain or isolate": "235/80", "conditions": "14 d", "result": "8 µM"}
{"smiles": "O=C(Oc1ccc(Cl)cc1C(=O)Nc1ccc(F)cc1)c1cnccn1", "strain or isolate": "6509/96", "conditions": "14 d", "result": "8 µM"}
{"smiles": "S=c1oc2ccc(Br)cc2c(=S)n1-c1cccc(Cl)c1", "strain or isolate": "6509/96", "conditions": "14 d", "result": "2 µM"}
{"smiles": "O=C(Oc1ccc(Cl)cc1C(=O)Nc1cccc(C(F)(F)F)c1)c1cnccn1", "strain or isolate": "235/80", "conditions": "7 d", "result": "8 µM"}
{"smiles": "O=c1oc2ccc(Br)cc2c(=S)n1-c1cccc(F)c1", "strain or isolate": "6509/96", "conditions": "21 d", "result": "8 µM"}
{"smiles": "Nc1ccc(C(=O)O)c(O)c1", "strain or isolate": "6509/96", "conditions": "21 d", "result": "500 µM"}
{"smiles": "O=C(Nc1ccc(Br)cc1)c1ccc(Br)cc1OS(=O)(=O)c1ccccc1", "strain or isolate": "235/80", "conditions": "21 d", "result": "16 µM"}
{"smiles": "NNC(=O)c1ccncc1", "strain or isolate": "6509/96", "conditions": "21 d", "result": "4–8 µM"}
{"smiles": "O=C(N[C@@H](Cc1ccccc1)c1cnc(-c2ccc([N+](=O)[O-])cc2)[nH]1)OCc1ccccc1", "strain or isolate": "My 235/80", "conditions": "7 d", "result": "16 µM"}
{"smiles": "NC(=O)c1cnccn1", "strain or isolate": "235/80", "conditions": "14 d", "result": ">1000 µM"}
{"smiles": "C[C@H](NC(=O)OCc1ccccc1)c1cnc(-c2ccccc2)[nH]1", "strain or isolate": "My 6509/96", "conditions": "7 d", "result": "125 µM"}
{"smiles": "O=C(Oc1cc(Cl)ccc1C(=O)Nc1cccc(Br)c1)c1cnccn1", "strain or isolate": "235/80", "conditions": "21 d", "result": "4 µM"}
{"smiles": "Cc1ccc2oc(=O)n(-c3ccccc3)c(=S)c2c1", "strain or isolate": "6509/96", "conditions": "14 d", "result": "2 µM"}
{"smiles": "O=C(Oc1ccc(Cl)cc1C(=O)Nc1cccc(F)c1)c1cnccn1", "strain or isolate": "6509/96", "conditions": "14 d", "result": "8 µM"}
{"smiles": "C[C@@H](NC(=O)OCc1ccccc1)c1cnc(-c2ccccc2)[nH]1", "strain or isolate": "My 235/80", "conditions": "14 d", "result": "250 µM"}

A second listing of 2 rows from above:

smiles,strain or isolate,conditions,result
O=C(Oc1ccc(Cl)cc1C(=O)Nc1ccc(F)cc1)c1cnccn1,6509/96,14 d,8 µM
O=c1oc2ccc(Br)cc2c(=S)n1-c1cccc(F)c1,6509/96,21 d,8 µM

Rows are shuffled and stem from different studies.